The entries are a selection whose mix differs from that of the whole data set. Some structures show a salt or complex split into parts, the way the source records it. Activity calls are given as the source filed them. Cut-off read from the data, not from the text of the source: active = inhibition above about 40%; inconclusive = no clear call, values can overlap the other calls; inactive = below that.

Consider 69 compounds from PubChem BioAssay AID602481 (Broad Institute, 2012).

The experiment relates to 7,8-diaminopelargonic acid synthase BioA (Mycobacterium tuberculosis). Description: M. tuberculosis BioA enzyme inhibitors, primary screen, biochemical, plate reader, single point, HTS (AID 602481). The settings on record: purified M. tuberculosis BioA enzyme, at 9.99 µM, hits give high values.
Turning to `CP(=O)(Nc1ccc(Cl)cc1Cl)Oc1ccccc1` (centres undefined), the inhibition (as a rule, the change of the read-out against control, counted positive when it falls) is inactive: 2.57%.
As for `O=C1C(O)=C([N+](=O)[O-])C(=O)C(O)=C1[N+](=O)[O-]`, the figure is inactive: -0.799%.
Regarding `COc1ccccc1OP(C)(=O)Nc1ccc(C)c(C)c1` (centres undefined), the inhibition is inactive: -1.06%.
On to `O=[N+]([O-])c1cc([N+](=O)[O-])c(Nc2ccccn2)c([N+](=O)[O-])c1`, for which the inhibition was inactive: 1.71%.
The value for `COc1ccccc1OP(C)(=O)Nc1ccc(C)cc1C` (centres undefined) was inactive: 0.549%; that for `CP(=O)(Nc1ccccn1)Oc1ccccc1` (centres undefined) was inactive: -0.584%.
The value for `CCc1ccc(OP(C)(=O)O)cc1` was inactive: -2.17%; that for `COc1ccccc1OP(C)(=O)Nc1ccc(Br)cc1` (centres undefined) was inactive: -2.26%; that for `COc1ccc(OP(C)(=O)Nc2ccccn2)cc1` (centres undefined) was inactive: -1.43%.
In the case of `CN(C)CCOC(=O)C(O)(c1ccccc1)C1CCCC1` (centres undefined), the inhibition was inactive: -2.07%.
As for `COc1ccccc1OP(C)(=O)Nc1ccccc1Br` (centres undefined), the inhibition is inactive: 0.003%.
The value for `CC(C)(C)c1ccc(OP(C)(=O)O)cc1` was inactive: 1.66%; that for `CP(=O)(Nc1ccc(Cl)cc1)Oc1ccc(F)cc1` (centres undefined) was inactive: 1.54%.
As for `CCN(CC)CC(O)COC(=O)C(O)(c1ccccc1)C1CCCCC1` (centres undefined), the figure is inactive: 1.97%; as for `O=C(OCCCN1CCCC1)C(O)(c1ccccc1)C1CCCCC1` (centres undefined), inactive: -0.0455%; as for `COc1ccccc1OP(C)(=O)Nc1c(C)n(C)n(-c2ccccc2)c1=O` (centres undefined), inactive: 1.2%.
As for `CCc1ccc(OP(C)(=O)Nc2cccnc2)cc1` (centres undefined), the figure is inactive: -0.731%; as for `CP(=O)(Oc1ccccc1)N1CCOC1=O` (centres undefined), inactive: -1.17%; as for `CCOC(=O)c1ccc(NP(C)(=O)Oc2ccc(Cl)cc2)cc1` (centres undefined), inactive: 2.04%.
Consider `CP(=O)(OC12CC3CC(CC(C3)C1)C2)OC12CC3CC(CC(C3)C1)C2`, for which the inhibition is inactive: -1.34%.
As for `Cc1cc(-c2cccc3ccccc23)c(C)cn1.O=[N+]([O-])c1cc([N+](=O)[O-])c(O)c([N+](=O)[O-])c1`, the figure is inactive: 0.547%.
The value for `Cc1c(C(c2ccc3c(c2)OCO3)c2c(C)n(C)n(-c3ccccc3)c2=O)c(=O)n(-c2ccccc2)n1C.O=[N+]([O-])c1cc([N+](=O)[O-])c(O)c([N+](=O)[O-])c1` was inactive: -2.03%; that for `COc1ccc(OP(C)(=O)Nc2cccc(Br)c2)cc1` (centres undefined) was inactive: 3.63%.
As for `CN(C)CCOC(=O)C(O)(c1ccccc1)C1CCCCC1` (centres undefined), the inhibition is inactive: -0.735%.
As for `COc1ccc(NP(C)(=O)Oc2ccccc2OC)cc1` (centres undefined), the figure is inactive: -2.04%; as for `CP(=O)(Nc1ccc2c(c1)OCCO2)Oc1ccccc1` (centres undefined), inactive: 0.75%; as for `Cc1ccccc1NP(C)(=O)Nc1ccccc1C`, inactive: -1.84%.
For `CCOP(C)(=S)SCC(=O)NC(C)(CC)C(=O)O` (centres undefined), the inhibition was inactive: -2.13%.
On to `O=C(OCCN1CCN(CCOCc2ccccc2)CC1)C(O)(c1ccccc1)c1ccccc1`, for which the inhibition is inactive: -1.75%.
The value for `COc1ccc2c(c1O)-c1c(O)c(OC)cc3c1[C@H](C2)[N+](C)(C)CC3.O=[N+]([O-])c1cc([N+](=O)[O-])c([O-])c([N+](=O)[O-])c1[O-]` was inactive: -0.748%.
In the case of `O=[N+]([O-])c1cc([N+](=O)[O-])c(Nc2ccc(Cl)cc2)c([N+](=O)[O-])c1`, the inhibition was inactive: 1.21%.
As for `CP(=O)(Nc1ccccc1F)Oc1ccccc1` (centres undefined), the figure is inactive: -3.83%; as for `Cc1c([N+](=O)[O-])cc([N+](=O)[O-])c(Br)c1[N+](=O)[O-]`, inactive: -0.621%.
With `CCN(CC)CCCOC(=O)C(O)(c1ccccc1)C1CCCCC1` (centres undefined), the inhibition was inactive: -3.04%.
The value for `CP(=O)(Nc1ccccc1)Oc1ccc(F)cc1` (centres undefined) was inactive: -1.53%; that for `CCCCCOc1ccc(NP(C)(=O)Oc2ccc(Cl)cc2Cl)cc1` (centres undefined) was inactive: 0.671%.
The value for `O=[N+]([O-])c1cc([N+](=O)[O-])c(OC2CCCCC2O)c([N+](=O)[O-])c1` (centres undefined) was inactive: -2.73%; that for `CCOC(=O)c1ccc(NP(C)(=O)Oc2ccc(F)cc2)cc1` (centres undefined) was inactive: 5.39%; that for `CC1=NCCc2c1[nH]c1ccccc21.O=[N+]([O-])c1cc([N+](=O)[O-])c(O)c([N+](=O)[O-])c1` was inactive: -1.66%.
As for `O=C(O)c1cccc(Nc2c([N+](=O)[O-])cc([N+](=O)[O-])cc2[N+](=O)[O-])c1`, the figure is inactive: 6.77%; as for `Cc1ccc(C)c(NP(C)(=O)Oc2ccccc2)c1` (centres undefined), inactive: -0.155%.
Regarding `Cc1cc(C)cc(OP(C)(=O)Nc2ccccn2)c1` (centres undefined), the inhibition was inactive: -0.136%.
As for `COc1ccccc1OP(C)(=O)Nc1cccc(Br)c1` (centres undefined), the figure is inactive: -0.241%; as for `Cc1cc(C)cc(OP(C)(=O)Nc2ccc(C)cc2C)c1` (centres undefined), inactive: 0.0135%; as for `O=[N+]([O-])c1cc([N+](=O)[O-])c(-c2cnn(-c3ccccc3)c2)c([N+](=O)[O-])c1`, inactive: -0.24%.
Take `Cc1nc2ccc3ccccc3c2s1.O=[N+]([O-])c1cc([N+](=O)[O-])c(O)c([N+](=O)[O-])c1`: the inhibition was inactive: -0.035%.
With `O=[N+]([O-])c1cc([N+](=O)[O-])c(-n2nnc3ccccc32)c([N+](=O)[O-])c1`, the inhibition is inactive: -2.01%.
The value for `CN(Cc1cccnc1)C(=O)COc1ccc(Cl)c(Cl)c1.O=[N+]([O-])c1cc([N+](=O)[O-])c(O)c([N+](=O)[O-])c1` was inactive: 2.86%.
The value for `COc1ccccc1OP(C)(=O)Nc1c(C)cccc1C` (centres undefined) was inactive: 2.25%; that for `CCCOc1ccc(NP(C)(=O)Oc2ccc(Cl)cc2)cc1` (centres undefined) was inactive: 1.57%.
The value for `CCOC(=O)C(CC)C1=NC(C)(C)Cc2ccccc21.O=[N+]([O-])c1cc([N+](=O)[O-])c(O)c([N+](=O)[O-])c1` (centres undefined) was inactive: -2.08%.
For `CC1=C2N=C(C=C3N=C(C(C)=C4[N-][C@@](C)([C@@H]5N=C1[C@](C)(CCC(=O)NC[C@@H](C)OP(=O)([O-])O[C@H]1[C@@H](O)[C@@H](n6cnc7cc(C)c(C)cc76)O[C@@H]1CO)[C@H]5CC(N)=O)[C@@](C)(CC(N)=O)[C@@H]4CCC(N)=O)[C@@](C)(CC(N)=O)[C@@H]3CCC(N)=O)C(C)(C)[C@@H]2CCC(N)=O.[C-]#N.[Co+3]`, the inhibition was inactive: 2.89%.
As for `O=[N+]([O-])c1cc([N+](=O)[O-])c(Nc2nnnn2CCO)c([N+](=O)[O-])c1`, the figure is inactive: 0.85%; as for `CP(=S)(Nn1cnnc1)Oc1ccccc1` (centres undefined), inactive: 2.78%; as for `CCOC(=O)c1ccc(NP(C)(=O)Oc2ccc(OC)cc2)cc1` (centres undefined), inactive: 2.96%.
For `O=[N+]([O-])c1cc([N+](=O)[O-])c(O)c([N+](=O)[O-])c1.c1ccc(Oc2ccncc2)cc1`, the inhibition was inactive: 2.08%.
As for `CCOP(C)(=S)SCC(=O)NC(C)C(=O)O` (centres undefined), the figure is inactive: -2.58%; as for `CP(=O)(Nc1ccccn1)Oc1ccc(Cl)cc1` (centres undefined), inactive: -2.45%; as for `CP(=O)(Oc1ccccc1)OC(c1ccccc1)C(F)(F)F` (centres undefined), inactive: -1.61%.
`Cc1cccc(C)c1OP(C)(=O)Nc1ccc(SC(F)(F)F)cc1` (centres undefined): the inhibition is inactive: -1.94%.
For `Cc1ccc(Nc2c([N+](=O)[O-])cc([N+](=O)[O-])cc2[N+](=O)[O-])cc1`, the inhibition was inactive: -0.689%.
The value for `CP(=O)(Nc1ccc(SC(F)(F)F)cc1)Oc1ccc(Cl)cc1` (centres undefined) was inactive: 1.77%; that for `CCc1ccc(OP(C)(=O)N2CCN(c3ccc([N+](=O)[O-])cc3)CC2)cc1` (centres undefined) was inactive: 1.75%.
The value for `Cc1ccc(NP(C)(=O)Oc2ccccc2)c(C)c1` (centres undefined) was inactive: -2.49%.
As for `COc1ccccc1OP(C)(=O)Nc1ccc(C)cc1` (centres undefined), the figure is inactive: -1.83%; as for `CCOC(=O)c1ccc(NP(C)(=O)Oc2ccccc2)cc1` (centres undefined), inactive: 0.134%; as for `Cc1cc(C)cc(OP(C)(N)=O)c1` (centres undefined), inactive: -2.09%.
Consider `COc1ccc(OP(C)(=O)Nc2cccc(F)c2)cc1` (centres undefined), for which the inhibition is inactive: -1.91%.
For `O=[N+]([O-])c1cc([N+](=O)[O-])c(Nc2cccnc2)c([N+](=O)[O-])c1`, the inhibition was inactive: 2.21%.
